US10913736B2 (UNIVERSITY OF WASHINGTON, priority 2014, dated 2021)

Amino acid sequences for entries named in this document (tags omitted). Residues count along the entry.
UniProt Q38C91, 1-773: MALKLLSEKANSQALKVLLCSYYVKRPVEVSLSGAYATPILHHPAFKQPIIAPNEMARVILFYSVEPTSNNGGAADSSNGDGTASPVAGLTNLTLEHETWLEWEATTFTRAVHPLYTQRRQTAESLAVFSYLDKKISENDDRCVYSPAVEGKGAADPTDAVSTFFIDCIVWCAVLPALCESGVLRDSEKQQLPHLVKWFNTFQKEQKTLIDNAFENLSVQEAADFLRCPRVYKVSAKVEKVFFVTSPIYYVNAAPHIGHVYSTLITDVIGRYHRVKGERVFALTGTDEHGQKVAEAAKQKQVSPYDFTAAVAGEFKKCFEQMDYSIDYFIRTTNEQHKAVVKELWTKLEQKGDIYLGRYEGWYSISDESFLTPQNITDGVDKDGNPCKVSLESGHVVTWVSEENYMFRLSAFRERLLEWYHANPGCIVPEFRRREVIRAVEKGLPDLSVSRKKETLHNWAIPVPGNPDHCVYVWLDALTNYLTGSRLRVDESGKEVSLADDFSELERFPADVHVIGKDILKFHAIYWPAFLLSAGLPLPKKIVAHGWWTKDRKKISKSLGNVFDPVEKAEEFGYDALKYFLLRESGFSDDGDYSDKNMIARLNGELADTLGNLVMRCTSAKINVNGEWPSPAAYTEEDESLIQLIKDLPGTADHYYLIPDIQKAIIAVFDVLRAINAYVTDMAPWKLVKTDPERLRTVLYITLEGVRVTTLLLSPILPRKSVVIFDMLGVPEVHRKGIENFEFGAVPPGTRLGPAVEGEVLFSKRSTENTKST

Tests used:
MetRS (T. brucei) = MetRS (T. brucei) (Trypanosoma brucei brucei, UniProt Q38C91); assay: MetRS (T. brucei) ATP depletion assay using Kinase-Glo; format: biochemical; settings: read-out: A) MetRS (T. brucei) ATP depletion assay using Kinase-Glo, IC50
T. brucei = assay: Growth inhibition assay of T. brucei cell cultures (Alamar Blue, 48 h); format: cell-based; settings: read-out: B) T. brucei EC50

**Q.** For `O=C(NCc1cc(Cl)cc(Cl)c1)Nc1nc2ccc(Cl)cc2[nH]1`, which IC50 (MetRS (T. brucei)) is on record?
**A.** The IC50 was > 10000 nM.

**Q.** And the EC50 (T. brucei)?
**A.** The EC50 was 6.38 µM.

**Q.** `O=C(C/C=C/c1ccc(Cl)cc1O)NCc1nc2ccccc2[nH]1` was tested. Which IC50 (MetRS (T. brucei)) did it give?
**A.** Its IC50 is 47 nM.

**Q.** And the EC50 (T. brucei)?
**A.** The EC50 was > 1 µM.
